Our source for the Kd values is paper PMC10384427, “Human Post-Translational SUMOylation Modification of SARS-CoV-2 Nucleocapsid Protein Enhances Its Interaction Affinity with Itself and Plays a Critical Role in Its Nuclear Translocation” (2023).

pKd: −log10 of the molar value.

Data set [1] relates to SARS-CoV-2 N protein K347R, not SUMOylated, SARS-CoV-2, P0DTC9 1-419. As to the kind of experiment: FRET or BRET.
Data set [2] concerns SARS-CoV-2 Nucleocapsid (N) protein, wildtype, SUMO1 modified, SARS-CoV-2 | human, P0DTC9;P63165. Nature of the data set: FRET or BRET.

Turning to “SARS-CoV-2 N protein K347R, not SUMOylated”, the pKd in data set [1] was 5.70. Substance “SARS-CoV-2 Nucleocapsid (N) protein, wildtype, SUMO1 modified” showed a pKd in data set [2] of 6.47.
